From BindingDB's records for doi:10.1021/bi0488799 (Glaxosmithkline, 2004) come the findings set out here.

pKi: −log10 of the molar value.

What all share (assay): Fluorometric Activity Assay
Common to all, as to conditions: pH 5.5; 30 °C

For experiment [1], the target named is T1, Dimer of Gag-Pol polyprotein [489-587,I539V] (Human immunodeficiency virus 1, UniProt P04585, I539V).
T1 construct: 489-587
Here is the method:
(§1) Enzymatic activity was determined with fluorogenic substrate in the presence and absence of inhibitor. The fluorescence increase due to hydrolysis of the substrate was monitored with an excitation filter of wavelength 340 nm and an emission filter of wavelength 420. Values for the inhibition constants (Ki) were determined by conventional steady-state kinetic techniques.

Experiment [2] addresses T2, Dimer of Gag-Pol polyprotein [489-587,L499I,L508Q,K509R,E524D,M525I,S526N,M535I,I539V,I543V,I551V,L552P,A560V,V571A,L579M] (Human immunodeficiency virus 1, UniProt P04585, A560V/E524D/I539V/I543V/I551V/K509R/L499I/L508Q/L552P/L579M/M525I/M535I/S526N/V571A).
T2 construct: 489-587
The protocol:
as §1

In experiment [3] the target is T3, Dimer of Gag-Pol polyprotein [489-587,M535I,L552P,A560V,V571F,I573V] (Human immunodeficiency virus 1, UniProt P04585, A560V/I573V/L552P/M535I/V571F).
T3 construct: 489-587
The protocol:
as §1

As for `CC(C)CN(C[C@@H](O)[C@H](Cc1ccccc1)NC(=O)O[C@H]1CCOC1)S(=O)(=O)c1ccc(N)cc1` [VX-478], the pKi (usually −log10 of the Ki, conventionally taken in molar units) in experiment [1] was 8.31; in experiment [2], 7.24; in experiment [3], 8.64.
